According to PMC10328928:
For at least one entry, the source does not settle the construct or the ends of the probe.

System: sNTD (A3G NTD solubility-enhanced variant) + VCBC (Vif-CBFbeta-ELOB-ELOC)
Assay: pull-down (GST)
Conditions: RNA-mediated sNTD-VCBC complex, Pull-down: 25 mM sodium phosphate pH 7.3, 150 mM NaCl, 0.5 mM TCEP, 10 uM proteins, 20 uM oligo, room temperature, recombinant protein, protein details: GST

| Sequence | binding result (letters put together from the description) | binding result |
| --- | --- | --- |
| CGGAAGAUCGUUGGAACAAA [RNA-I-20] | binds |  |
| GCUAAACUGACGGAAGAUCGUUGGAACAAA [RNA-I-30] |  | binds |
